Human monoclonal antibodies against the spike receptor-binding domain (heavy:light variable regions). IC50 against pseudoviruses bearing the spike of naturally observed variants; lower = stronger; >10 µg/ml means not reached at the top dose. No active / inactive call. The stated detection limit is 0.0005 µg/ml; values near or below 0.001 µg/ml lie at the floor of the assay.
B1: BD56-427 (protein)
chain 1: QVQLVQSGSELKKPGASVKVSCKASGYTFLNYAMNWVRQAPGQGLEWMGWINTNTGNPTYAQGFTGRFVFSLDTSVSTAYLQISSLKAEDTAVYYCARIGARDSSSWLDDAFDIWGQGTMLTVSS
chain 2: DIVMTQSPDSLAVSLGERATINCKSSHSVLYSSNNQNFLAWYQQKPGQTPKLLIYWASTRESGVPDRFSGSGSGTDFTLTISSLQAEDVAVYYCQQYYSTPLTFGGGTKVEIK
B2: BD56-428 (protein)
chain 1: QGQLVQSGPEVKKPGTSVKVSCKASRFTFTTSAVQWVRQARGQRLEWIGWIAPGSTKIDYAQKFQDRVTMTRDMSTSTAYMELSSLRSEDTAMYYCAAPYCSGGRCLDGFDIWGQGTMVTVSS
chain 2: EIVLTQSPGTLSLSPGDRATLSCRASQTISRSYLAWYQQKGGQAPRLLIYGVSSRATGIPDRFSGSGSGTDFTLTIGRLQPEDFAVYYCQQYGTSPWTFGQGTKVEMK
B3: BD56-431 (protein)
chain 1: EVQLVESGGGLIQPGGSLRLSCAASGFTVSSSYMNWVRQGPGKGLEWVSVIYTGGTTYYADSVKGRFTISRDNSKNALYLQMNSLRVDDTALYYCARGQQEGWLQSGGFDIWGQGTMVTVSS
chain 2: QSALTQPPSASGSPGQSVNISCTGTSSDVGGSNYVSWYQQHPDKAPKLILSEVSKRPSGVPDRFSGSKSGNTASLTVSGLQAEDEADYFCSSYAGHHNFVFGTGTKVTVL
B4: BD56-433 (protein)
chain 1: EVHLEESGGGLVKPGGSLRLSCAASGFAFITYTMNWVRQSPGKGLEWVSSISSSGRYIYYADSVKGRFTISRDNDENSLYLQMNSLRAEDTAVYYCARVGAREDREWELRGAYLDVWGKGTTVSVSS
chain 2: EIVLTQSPGTLSLSPGERATLSCRASQTLSSNSLAWYQQKPGQAPRLLIFGASTRATGIPDRVSGSGSGTDFTLTISRLEPEDFAVYYCQRYGNSAPITFGQGTRLEIK
B5: BD56-436 (protein)
chain 1: QVQLVESGGGVVQPGRSLRLSCVASGFSFRSYAMHWVRQAPGKGLEGVAVIWNDGSNKNYADSVKGRFTISRDNSKNTLYLQMNSLKAEDTAVYYCAREGISIAAGGDDAFDIWGQGTMVTVSS
chain 2: DIQMTQSPSSLSASAGDTVTITCRASQSVSSFLNWYQQTPGKAPKLLIYAASSLQSGVPSRFSGGGSGTDFTLTISSLQPEDFATYYCQQSYNAPYTFGQGTKLDIK
B6: BD58-0407 (protein)
chain 1: QITLKESGPTLVKPTQTLTLTCTFSGFSLSTSGVSVGWIRQPPGKALEWLALIYWDDDKRYSPSLKSRLTITKDTSKNQVVLTMTDMDPVDTATYYCAHNYHSSGWFWGQGTLVTVSS
chain 2: AIQMTQSPSSLSASVGDRVTITCRASQGIRNDLGWYQQKPGKAPKLLIYAASSLQSGVPSRFSGSGSGTDFTLTISSLQPEDFATYYCLQDYSYPFTFGPGTKVDIK
B7: BD58-0415 (protein)
chain 1: EVQLVQSGAEVKKPGESLKISCKGSGYSFTSYWIGWVRQMPGKGLEWMGIIYPGDSDTRYSPSFQGQVTISADKSISTAYLQWSSLKASDTAMYYCATCDILTVCDYWGQGTLVTVSS
chain 2: EIVLTQSPGTLSLSPGERATLSCRASQSVSSGYLAWYQKKPGQAPRLLIYDASSRATGIPDRFSGSGSGTDFTLTISRLEPEDFAVYYCQQYGSSIFTFGPGTKVDIK
B8: BD58-0417 (protein)
chain 1: EVQLLESGGGLVQPGESLRLSCAASGFTFSSYAMSWVRQAPGKGLEWVSAISGSGAGTYYADSVKGRFTFSRDNSKNTLYLQMNSLRAEDTAVYYCAKSTWLQLASSRIFDSWGQGTLVTVSS
chain 2: NFMLTQPHSVSESPGKTVIISCTGSSGSIASNYVQWYQQRPGSAPTTVIYEDNQRPSGVPDRFSGSIDSSSNSASLTISGLKTEDEADYYCQSSDGTNWVFGGGTKLTVL
B9: BD58-0429 (protein)
chain 1: EVQLVESGGGLIQPGGSLRLSCAASGFTVTSNYMSWVRQAPGKGLEWVSVIYSGGSTFYADSVKGRFTISRDIPRNTLYLQMNSLRAEDTAVYYCARLTVAAAGDAFDLWGQGTMVTVSS
chain 2: QSVLTQPPSVSAAPGQKVTISCSGSSSNIGNNYISWYQQLPGTAPKLLIYDNNKRPSGIPDRFSGSKSGTSATLGITGLQTGDEADYYCGTWDSSLSAVVFGGGTKLTVL
B10: BD58-0433 (protein)
chain 1: QVQLVQSGAEVKKPGASVKVSCRASGYTFTNYGISWVRQAPGQGLEWMGWISAYDGNKKYAQKFQGRVTMTTDTSTSTAYMELRSLRSDDTAVYYCARTSSNWPQELDYWGQGTLVTVSS
chain 2: QSALTQPASVSGSPGQSITISCTGTSSDVGGYNYVSWYQQHPGKAPKLMIYDVSNRPSGVSNRFSGSKSGNTASLTISGLQAEDEADYYCSSFTSGSTWVFGGGTKLTVL
B11: BD58-0435 (protein)
chain 1: EVQLVESGGGLVQPGGSLRLSCAASGFTVSSNYMSWVRQAPGKGLEWVSVIYSGDGTYYADSVKGRFTISRDHSKNMLYLQMNSLRVDDTAVYYCAIVDYADDDYWGQGTLVTVSS
chain 2: SYELTQPSSVSVSPGQTARITCSGDVLAKKYGRWFQQKPGQAPVQVIYKDSERPSGIPERFSGSSSGTTVTLTISGAQVEDEADYYCYSAADNNWVFGGGTKLTVL

How the values were obtained:
Experiment in all cases: pseudovirus neutralization IC50; higher = weaker neutralization
[1] = target: SARS-CoV-2 Omicron BA.1 spike pseudovirus
Protocol: (§1)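 Single-round VSV luciferase pseudovirus mixed with antibody dilutions for 1 h and put on Huh-7 cells for about a day; IC50 from the dose curve.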

[2] = target: SARS-CoV-2 Omicron BA.2 spike pseudovirus
Protocol: as §1

[3] = target: SARS-CoV-2 Omicron BA.2.75 spike pseudovirus
Protocol: as §1

[4] = target: SARS-CoV-2 Omicron BA.5 spike pseudovirus
Protocol: as §1

[5] = target: SARS-CoV-2 Omicron BQ.1.1 spike pseudovirus
Protocol: as §1

[6] = target: SARS-CoV-2 Omicron XBB spike pseudovirus
Protocol: as §1

[7] = target: SARS-CoV-2 early D614G spike pseudovirus
Protocol: as §1

[8] = target: SARS-CoV-2 Omicron BA.2.75.2 spike pseudovirus
Protocol: as §1

[9] = target: SARS-CoV-2 Omicron BM.1.1.1 spike pseudovirus
Protocol: as §1

[10] = target: SARS-CoV-2 Omicron BR.2 spike pseudovirus
Protocol: as §1

[11] = target: SARS-CoV-2 Omicron CA.1 spike pseudovirus
Protocol: as §1

| Binder | pseudovirus neutralization IC50 [1] [µg/mL] | pseudovirus neutralization IC50 [2] [µg/mL] | pseudovirus neutralization IC50 [3] [µg/mL] | pseudovirus neutralization IC50 [4] [µg/mL] | pseudovirus neutralization IC50 [5] [µg/mL] | pseudovirus neutralization IC50 [6] [µg/mL] | pseudovirus neutralization IC50 [7] [µg/mL] | pseudovirus neutralization IC50 [8] [µg/mL] | pseudovirus neutralization IC50 [9] [µg/mL] | pseudovirus neutralization IC50 [10] [µg/mL] | pseudovirus neutralization IC50 [11] [µg/mL] |
| --- | --- | --- | --- | --- | --- | --- | --- | --- | --- | --- | --- |
| B1 | > 10 | > 10 | > 10 | > 10 | > 10 | > 10 | 0.0105 | – | – | – | – |
| B2 | 0.00374 | 0.00205 | 0.00233 | 1.07 | 1.14 | > 10 | 0.00138 | – | – | – | – |
| B3 | 0.00243 | 0.00212 | 0.00189 | > 10 | > 10 | > 10 | 0.00134 | – | – | – | – |
| B4 | 0.454 | 0.305 | 0.281 | > 10 | > 10 | > 10 | 0.001 | – | – | – | – |
| B5 | 0.0143 | 0.00734 | 0.0115 | 5.04 | > 10 | 0.131 | 0.00434 | – | – | – | – |
| B6 | > 10 | 4.13 | > 10 | 0.11 | > 10 | > 10 | > 10 | > 10 | > 10 | > 10 | > 10 |
| B7 | > 10 | 0.963 | > 10 | 1.24 | > 10 | > 10 | > 10 | > 10 | > 10 | > 10 | > 10 |
| B8 | > 10 | > 10 | > 10 | > 10 | > 10 | > 10 | > 10 | > 10 | > 10 | > 10 | > 10 |
| B9 | > 10 | 0.495 | 0.355 | 0.229 | 1.45 | > 10 | > 10 | 0.848 | > 10 | > 10 | > 10 |
| B10 | 0.288 | 0.0597 | 0.433 | 0.021 | > 10 | > 10 | > 10 | > 10 | > 10 | > 10 | > 10 |
| B11 | 0.0571 | 0.0221 | > 10 | > 10 | > 10 | > 10 | > 10 | > 10 | > 10 | > 10 | > 10 |
